A mixed list of measured activities; the numbers were collected in NIAID ChemDB.

Common to all: whole-cell or culture tests; species: Cryptococcus neoformans

Blank or dashed fields: not listed here. Two numbers with a dash give a range or band. Conditions beyond the fields shown may differ between rows. ECn is the concentration giving n% inhibition of infection, replication or growth. A number after MIC or MFC names an inhibition level or a share of isolates.

smiles	measure	strain or isolate	method	value
CCCCCCCCCCCC(=O)NC(CCCN)C(=O)NC(CCCN)C(=O)NC(CCCN)C(=O)NC(CCCN)C(N)=O	MIC	ATCC 2344	broth dilution	12.5 µg/mL
C[C@H](n1nnc(CCN2CCN(c3ccc(Cl)cc3)CC2)n1)[C@](O)(Cn1cncn1)c1ccc(F)cc1F	MIC	LA314		4 µg/mL
CCCCCCCCOc1ccc(C(=O)NC2C[C@@H](O)[C@@H](O)NC(=O)C3[C@@H](O)[C@@H](C)CN3C(=O)C(C(C)O)NC(=O)C([C@H](O)[C@@H](O)c3ccc(O)cc3)NC(=O)C3C[C@@H](O)CN3C(=O)C(C(C)O)NC2=O)cc1	MFC	12 strains		>40 µg/mL
Fc1ccc(OCCCC(Cn2ccnc2)c2ccc(Cl)cc2Cl)cc1	MIC			<1 µg/mL
COc1ccc(-c2c3c(N)c4c(nc3nc3c2c(C)nn3-c2ccccc2)CCCCC4)cc1	MIC100	ATCC 32264	broth dilution / absorbance	>250 µg/mL
Oc1ccccc1N=Cc1ccccc1	MIC99	96806		5.7 µg/mL
Cc1cc(NS(=O)(=O)c2ccc(N)cc2)no1	MIC	IFM 40215		32 µg/mL
C[C@H](n1nnc(CCN2CCN(c3ccc(F)cc3)CC2)n1)[C@](O)(Cn1cncn1)c1ccc(F)cc1F	MIC	LA314		2 µg/mL
C[C@@H](N1CCN(Cc2cn(Cc3ccc(F)cc3F)c3ccc(C#N)cc23)CC1)[C@](O)(Cn1cncn1)c1ccc(F)cc1F	MIC80	ATCC 36556	resazurin	>128 µg/mL
CN[C@H]1CC[C@@H](c2ccc(Cl)c(Cl)c2)c2ccccc21	MFC	C23	broth dilution	8 µg/mL
COc1cc(O)c2c(c1)C(=O)c1c(cc3c(c1O)-c1c(cc(C)c(C(=O)NCC(=O)O)c1O)[C@H](OC1OC(C)C(N(C)C)C(OC4OCC(O)C(O)C4O)C1O)[C@H]3O)C2=O	MIC	IAM 4514		1.6 µg/mL
Oc1ccccc1C=Nc1ccccc1O	MIC	5396	broth dilution	5.7 µg/mL
O=C1C(OS(=O)(=O)c2ccc([N+](=O)[O-])cc2)C(c2ccccc2)N1c1ccccc1	MIC	AH27/A		14.08 µM
C[C@H]1[C@H](O)[C@@H](C)/C=C/C=C/C=C/C=C/C=C/C=C/C=C/[C@H](O[C@@H]2O[C@H](C)[C@@H](O)[C@H](N)[C@@H]2O)C[C@@H]2O[C@](O)(C[C@@H](O)C[C@@H](O)CC[C@H](O)[C@@H](O)C[C@@H](O)CC(=O)O[C@H]1C)C[C@H](O)[C@H]2C(=O)O	MIC	5 isolates		0.31–1.25 µg/mL
C[C@@H](N1CCN(Cc2cn(Cc3ccc(Cl)cc3Cl)c3cc(Cl)ccc23)CC1)[C@](O)(Cn1cncn1)c1ccc(F)cc1F	MIC80	ATCC 36556	resazurin	>128 µg/mL
Oc1cccc(C=Nc2ccccc2O)c1	MIC99	5396		5.7 µg/mL
Cc1nn(-c2ccccc2)c2nc3nc4c(c(N)c3c(-c3ccc(Cl)cc3)c12)CCCC4	MIC80	ATCC 32264	broth dilution / absorbance	>250 µg/mL
C[C@@H](N1CCN(Cc2c[nH]c3ccccc23)CC1)[C@](O)(Cn1cncn1)c1ccc(F)cc1F	MIC80	ATCC 36556	resazurin	>128 µg/mL
Clc1ccc(C(CCOc2ccccc2Cl)Cn2ccnc2)c(Cl)c1	MIC			<1 µg/mL
Oc1ccccc1N=Cc1ccc(F)cc1	MIC	27JF	broth dilution	16 µg/mL
CCCCCCCCCCCCC#CCCC#CC(=O)O	MIC	ATCC66031		<5 µM
C[C@H](n1nnnc1CCN1CCN(c2ccccc2Cl)CC1)[C@](O)(Cn1cncn1)c1ccc(F)cc1F	MIC	LA314		8 µg/mL
CCCCCCCC(=O)NC(CCCN)C(=O)NC(CCCN)C(N)=O	MIC	ATCC 2344	broth dilution	>100 µg/mL
C[C@H](n1nnc(CCN2CCN(C(c3ccccc3)c3ccccc3)CC2)n1)[C@](O)(Cn1cncn1)c1ccc(F)cc1F	MIC	LA314		8 µg/mL
C[C@H]([C@](O)(Cn1cncn1)c1ccc(F)cc1F)S(C)(=O)=O	EC50	B4500 (AZOLE-S)		0.18 µM
CCCCc1ccccc1N1CCN(CCc2nnnn2[C@@H](C)[C@](O)(Cn2cncn2)c2ccc(F)cc2F)CC1	MIC	LA314		0.5 µg/mL
Clc1ccc(C(CCCOc2ccc(Br)cc2)Cn2ccnc2)c(Cl)c1	MIC			10 µg/mL
N=C(N)c1ccc(O)cc1	MIC80	H99		>100 µg/mL
CC(O)Cc1ccc(Cn2cc(CN3CCN([C@H](C)[C@](O)(Cn4cncn4)c4ccc(F)cc4F)CC3)c3cccc(F)c32)cc1	MIC80	ATCC 36556	resazurin	>128 µg/mL
CC(=O)OC1C(=O)N(c2ccccc2)C1c1ccc2c(c1)OCO2	MIC	AH27/A		159 µM
Nc1ccc(S(=O)(=O)Nc2ccnn2-c2ccccc2)cc1	MIC	IFM 51976		8 µg/mL
C[C@@H](N1CCN(Cc2cn(Cc3ccc(C(F)(F)F)cc3)c3ccccc23)CC1)[C@](O)(Cn1cncn1)c1ccc(F)cc1F	MIC80	ATCC 36556	resazurin	>128 µg/mL
Cc1ccc(-c2c3c(N)c4c(nc3nc3c2c(C)nn3-c2ccccc2)CCC4)cc1	MIC80	ATCC 32264	broth dilution / absorbance	250 µg/mL
COc1cc(O)c2c(c1)C(=O)c1cc(C)cc(O)c1C2=O	MIC			50 µg/mL
N=C(N)c1ccc2nc(CCCCc3nc4ccc(C(=N)N)cc4[nH]3)[nH]c2c1	MFC	H99		>100 µg/mL
Cc1ccc(-c2c3c(N)c4c(nc3nc3c2c(C)nn3-c2ccccc2)CCCC4)cc1	MIC100	ATCC 32264	broth dilution / absorbance	250 µg/mL
Oc1ccc(O)c(C=Nc2ccccc2O)c1	MIC99	96806		11.3 µg/mL
C=CCc1ccc(Cn2cc(CN3CCN([C@H](C)[C@](O)(Cn4cncn4)c4ccc(F)cc4F)CC3)c3cccc(F)c32)cc1	MIC80	ATCC 36556	resazurin	>128 µg/mL
CC(=O)N1CCN(c2ccc(OC[C@H]3CO[C@](Cn4ccnc4)(c4ccc(Cl)cc4Cl)O3)cc2)CC1	MIC50	12 strains		1 µg/mL
Clc1ccc(C(COc2ccc(Br)cc2)Cn2ccnc2)c(Cl)c1	MIC			<1 µg/mL
Cn1nc(Cc2ccc(Cl)cc2)c2ccccc2c1=O	MIC	Clinical isolate (IM 031631)	broth dilution	62.5 µg/mL
CC[C@H]1/C=C(\C)[C@H](O)[C@H](C)C[C@H](OC)[C@H]2O[C@@](O)(C(=O)C(=O)N3CCCC[C@H]3C(=O)O[C@H](/C(C)=C/[C@@H]3CC[C@@H](O)[C@H](OC)C3)[C@H](C)[C@@H](O)CC1=O)[C@H](C)C[C@@H]2OC	MIC	C20F2		100 µg/mL
Clc1ccc(OCCC(Cn2ccnc2)c2ccc(Cl)cc2Cl)c(Cl)c1	MIC			<1 µg/mL
CCCCCCCC(=O)NC(CCCN)C(=O)NC(CCCN)C(=O)NC(CCCN)C(N)=O	MIC	ATCC 2344	broth dilution	>100 µg/mL
C[C@@H](n1cnc2cc(Cl)ccc2c1=O)[C@](O)(Cn1cncn1)c1ccc(F)cc1F	MFC	Isolate 114.96		20 µg/mL
O=C1C(O)C2(c3ccccc3)SCCCN12	MIC	AH27/A		53.19 µM
C[C@H](n1nnnc1CCN1CCN(c2ccccn2)CC1)[C@](O)(Cn1cncn1)c1ccc(F)cc1F	MIC	LA314		>8 µg/mL
CO[C@@H]1[C@@H](C)O[C@@H](OCC23CC4C(C)CCC4C4(C=O)CC2C=C(C(C)C)C43C(=O)O)[C@@H](O)C12OC(=O)[C@H](CCCCCCCC(=O)O)O2	MIC	MY2062		>100 µg/mL
CC[C@@H]1[C@@H](Cn2cncn2)[C@H](COc2ccc(OC(F)(F)F)cc2)CC[C@@]1(C)CCN1CCOCC1	MIC	CY1057		0.02 µg/mL
C[C@@H](N1CCN(Cc2cn(Cc3ccc(C(F)(F)F)cc3)c3cc(Cl)ccc23)CC1)[C@](O)(Cn1cncn1)c1ccc(F)cc1F	MIC80	ATCC 36556	resazurin	>128 µg/mL
CCCCCOc1ccc(-c2ccc(-c3ccc(C(=O)N[C@H]4C[C@@H](O)[C@@H](O)NC(=O)[C@@H]5[C@@H](O)[C@@H](C)CN5C(=O)[C@H]([C@H](C)O)NC(=O)[C@H]([C@H](O)[C@@H](O)c5ccc(O)cc5)NC(=O)[C@@H]5C[C@@H](O)CN5C(=O)[C@H]([C@H](C)O)NC4=O)cc3)cc2)cc1	MIC	887.002		>2 µg/mL
CCCCCCC#CCCCCCC#CC(=O)O	MIC	ATCC66031		<5.8 µM
CS(=O)(=O)OC1C(=O)N(c2ccccc2)C1c1ccccc1	MIC	AH27/A		18.92 µM
N=C(N)c1ccc(OCCCCC(=O)O)cc1	MIC80	H99		>100 µg/mL
COc1cc(NS(=O)(=O)c2ccc(N)cc2)ncn1	MIC	IFM 49722		≥256 µg/mL
CCCCCCCCCCCC(=O)NC(CCCN)C(=O)NC(CCCN)C(N)=O	MIC	ATCC 2344	broth dilution	50 µg/mL
CCOC(=O)c1c(C)nc(NCCCCNc2ccnc3cc(Cl)ccc23)nc1-c1ccccc1	MIC99	27JF		16 µg/mL
Cc1nnc(NS(=O)(=O)c2ccc(N)cc2)s1	MIC	IFM 49624		≥256 µg/mL
Oc1ccccc1N=Cc1cccc(O)c1O	MIC	28JF	broth dilution	4 µg/mL
CCCCCCCCCCCCCC(=O)NC(CCCN)C(N)=O	MIC	ATCC 2344	broth dilution	>100 µg/mL
Oc1ccccc1N=Cc1ccc(O)c(O)c1O	MIC	VM-MCMMPI	broth dilution	11.3 µg/mL
CCCCCCCCCCCCCCCCCC(=O)NC(CCCN)C(=O)NC(CCCN)C(=O)NC(CCCN)C(=O)NC(CCCN)C(=O)NC(CCCN)C(N)=O	MIC	ATCC 2344	broth dilution	3.1 µg/mL

The first 6 rows once more:

smiles,measure,strain or isolate,method,value
CCCCCCCCCCCC(=O)NC(CCCN)C(=O)NC(CCCN)C(=O)NC(CCCN)C(=O)NC(CCCN)C(N)=O,MIC,ATCC 2344,broth dilution,12.5 µg/mL
C[C@H](n1nnc(CCN2CCN(c3ccc(Cl)cc3)CC2)n1)[C@](O)(Cn1cncn1)c1ccc(F)cc1F,MIC,LA314,,4 µg/mL
CCCCCCCCOc1ccc(C(=O)NC2C[C@@H](O)[C@@H](O)NC(=O)C3[C@@H](O)[C@@H](C)CN3C(=O)C(C(C)O)NC(=O)C([C@H](O)[C@@H](O)c3ccc(O)cc3)NC(=O)C3C[C@@H](O)CN3C(=O)C(C(C)O)NC2=O)cc1,MFC,12 strains,,>40 µg/mL
Fc1ccc(OCCCC(Cn2ccnc2)c2ccc(Cl)cc2Cl)cc1,MIC,,,<1 µg/mL
COc1ccc(-c2c3c(N)c4c(nc3nc3c2c(C)nn3-c2ccccc2)CCCCC4)cc1,MIC100,ATCC 32264,broth dilution / absorbance,>250 µg/mL
Oc1ccccc1N=Cc1ccccc1,MIC99,96806,,5.7 µg/mL